# Experimental data: PubChem BioAssay AID504761 (Drosophila RNAi Screening Center, 2011)
# Screen: 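Insect host genes that dengue virus relies on to spread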 (primary screen)
# Cell system: D.Mel-2 cells from Drosophila
# Reagent: long dsRNA against Drosophila genes
# Challenge: infection with dengue virus type 2; dose and infection time not stated
# Measurement: 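Per well on two replicate plates, imaging gave the percent of cells positive for viral envelope protein, ranked by infection, and a nuclear count of cells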
# Direction: infection score: higher = more virus-infected cells; cell count: higher = more cells in the well
# Hit rule: 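Very low infection ranking in both replicate wells (chance probability at most 0.065), then a retest showing infection dropped 1.5-fold or more at p below 0.05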
# Meaning of the calls: active = confirmed: knock-down lowers infection; inactive = not picked or not confirmed
# The screen tested about 22,000 reagents; this is an unselected part of those with a known target gene and a result. Of all reagents, 116 (0.52%) were called active. 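Calls depend on retest data that are not deposited; infection was ranked per plate without normalising between plates; the unit of the infection score is not given.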 The raw values are shown without normalisation. Reagents against one gene are numbered here. Not stated in the record: the amount of reagent, the time to read-out.
gene,reagent,"infection score, replicate 1","infection score, replicate 2","cell count, replicate 1","cell count, replicate 2",activity call
CG11076,1,0.62,8.33,6456,5849,inactive
RabX2,1,3.01,8.92,6785,6649,inactive
CG6195,1,10.4,13.1,6825,5624,inactive
CG6195,2,5.16,4.7,7127,6943,inactive
CG12483,1,3.31,4.29,6553,6880,inactive
Faf2,1,13.8,10.9,5636,5801,inactive
CG1309,1,13.7,10.3,3686,5304,inactive
Rbf,1,6.38,18.3,6525,6122,inactive
Rbf,2,7.87,5.86,6515,6619,inactive
GstD3,1,4.55,2.93,6784,750,inactive
GstD3,2,1.5,2.24,6351,6168,inactive
CG11562,1,14.1,16.7,6349,6800,inactive
nSMase,1,3.65,14.4,6678,6223,inactive
CG17196,1,3.53,7.01,6353,6619,inactive
CG33107,1,1.29,9.46,697,5721,inactive
CG31730,1,1.52,0.84,5780,5740,inactive
Smr,1,13.8,31.5,4962,3434,inactive
Smr,2,1.69,0.9,5222,5663,inactive
dnk,1,8.2,0.96,4303,5325,inactive
dnk,2,9.94,10.3,2193,4925,inactive
CG14247,1,,,362,343,inactive
CG14247,2,3.4,3.47,6146,6057,inactive
CG30432,1,2.78,2.53,6336,6010,inactive
Hakai,1,22.2,9.68,5659,6573,inactive
Hr51,1,4.04,5.88,6741,6696,inactive
Hr51,2,1.96,2.2,6270,6876,inactive
CG13248,1,3.88,1.71,5979,6039,inactive
CG13248,2,2.93,3.21,6183,6105,inactive

Next part; the last 8 above are carried over.
gene,reagent,"infection score, replicate 1","infection score, replicate 2","cell count, replicate 1","cell count, replicate 2",activity call
CG14247,1,,,362,343,inactive
CG14247,2,3.4,3.47,6146,6057,inactive
CG30432,1,2.78,2.53,6336,6010,inactive
Hakai,1,22.2,9.68,5659,6573,inactive
Hr51,1,4.04,5.88,6741,6696,inactive
Hr51,2,1.96,2.2,6270,6876,inactive
CG13248,1,3.88,1.71,5979,6039,inactive
CG13248,2,2.93,3.21,6183,6105,inactive
nAChRbeta1,1,0.89,0.38,6648,6372,inactive
nAChRbeta1,2,8.95,8.5,2369,2942,inactive
lds,1,4.52,6.58,6134,6655,inactive
Smyd4-4,1,18.9,14.9,5403,6420,inactive
Rx,1,4.92,1.96,6327,6275,inactive
Rx,2,5.65,11.5,6705,6392,inactive
Rx,3,0.93,0.54,6137,6103,inactive
CG14088,1,5.07,4.56,5900,6119,inactive
CG6696,1,4.4,2.69,2843,5054,inactive
CG6696,2,1.01,11.9,6433,4735,inactive
CG10038,1,10.3,4.87,6893,6979,inactive
Cul2,1,17.8,16.9,6129,5982,inactive
CG33998,1,2.31,3.19,6411,6984,inactive
ttm3,1,3.57,6.54,6718,6483,inactive
Efhc1.1,1,6.39,1.08,6075,6373,inactive
CG33013 (retired record),1,29.1,16.4,5368,5981,inactive
CG33013 (retired record),2,9.35,13.7,6147,5355,inactive
CAH9,1,4.71,0.85,6799,589,inactive
CAH9,2,,,291,329,inactive
CG2533,1,13.9,23.6,4889,4998,inactive
CG2533,2,17.8,7.07,5041,1952,inactive
al,1,1.62,4.17,6614,6641,inactive
pot,1,1.32,4.93,6289,6648,inactive
pot,2,5.3,11.9,6099,7083,inactive
CG11370,1,3.24,7.6,6541,6674,inactive
CG11370,2,8.66,10.8,2864,6348,inactive
CG12439,1,2.66,2.67,6016,6965,inactive
CG14829,1,2.73,2.81,6406,6403,inactive
CG5079,1,2.41,6.96,6101,6333,inactive
CG6665,1,10.1,7.13,6587,7081,inactive
